We go through one substance from patent US20140287433.

“Also recorded” adds a separate entry of the source.

In series [1] the test system is SNAPtide (FITC/DABCYL) (List Biological Laboratories Inc.).
Series [2] has as its system SNAPtide (o-Abz/Dnp) (List Biological Laboratories Inc.).
Series [3] concerns SNAPtide (DABCYL/5-IAF) (List Biological Laboratories Inc.).

Turning to BoNT/A, the “lowest toxin concentration detected by substrate cleavage (fluorescence)” value in series [1] is “allowed detection of at least either 1 nM BoNT/A; also recorded: SNAPtideFITC and SNAPtideo-Abz even allowed detection of 0.5 nM BoNT/A”; in series [2], “allowed detection of at least either 1 nM BoNT/A; also recorded: SNAPtideFITC and SNAPtideo-Abz even allowed detection of 0.5 nM BoNT/A”; in series [3], “allowed detection of at least either 1 nM BoNT/A”.
